A mixed list of measured activities; the numbers were collected in NIAID ChemDB.

All rows: tests in culture; organism: HIV-1; read-out: EC90

ECn is the concentration giving n% inhibition of infection, replication or growth. Blank or dashed fields: not listed here. Rows are shuffled and stem from different studies.

smiles	cells	mutations	strain	result
N#Cc1cccc(CN2C(=O)N(Cc3cccc(C#N)c3)[C@@H](Cc3ccccc3)[C@@H](O)[C@@H]2CCc2ccccc2)c1	MT-2		RF	>5 µM
Cc1cn([C@H]2C=C(N=[N+]=[N-])[C@@H](CO)O2)c(=O)[nH]c1=O	PBMC			83.5 µM
Nc1nc2c(ncn2[C@H]2CO[C@@H](CO)O2)c(=O)[nH]1				15 µM
O=C(Nc1cc(S(=O)(=O)O)cc2cc(S(=O)(=O)O)c(N=Nc3ccc(N=Nc4c(S(=O)(=O)O)cc5cc(S(=O)(=O)O)cc(NC(=O)c6cccc(Cl)c6Cl)c5c4O)cc3)c(O)c12)c1ccc(Cl)cc1Cl	MONO/MACRO + Monocytes/macrophages		BaL	0.63 µg/mL
[N-]=[N+]=N[C@H]1[C@@H](O)[C@H](n2cnc3c(=O)[nH]c(N)nc32)O[C@@H]1CO	PBMC			>100 µM
Cc1ncnc(C)c1C(=O)N1CCC(C)(N2CCN([C@@H](Cc3ccccc3)c3ccc(C(F)(F)F)cc3)[C@@H](C)C2)CC1	PBMC		ADA-M Clinical isolates	0.00004 µM
Nc1ccn([C@H]2CC[C@@H](CO)O2)c(=O)n1	MT-2		RF	0.16 µg/mL
CCC[C@@H](c1ccc(C(F)(F)F)cc1)N1CCN(C2(C)CCN(C(=O)c3c(C)ncnc3C)CC2)C[C@@H]1C	PBMC		301657 Clinical isolates	0.00009 µM
Cc1cn([C@H]2C[C@H](N=[N+]=[N-])[C@@H](CO)O2)c(=O)[nH]c1=O	PBMC			0.014 µM
Nc1cccc(CN2C(=O)N(Cc3ccc4[nH]nc(-c5cccs5)c4c3)[C@H](Cc3ccccc3)[C@H](O)[C@@H](O)[C@H]2Cc2ccccc2)c1	MT-2	PR-M46I L63P A71V V82F I84V	Ritonavir-resistant (PR M46I L63P A71V V82F I84V)	>5 µM
CC[C@H](C)[C@H](NC(=O)Cc1ccccn1)C(=O)N[C@@H](Cc1ccccc1)[C@@H](O)[C@H](O)[C@H](Cc1ccccc1)NC(=O)[C@@H](NC(=O)Cc1ccccn1)[C@@H](C)CC	MT-2		RF	1.5 µg/mL
Nc1ccn([C@@H]2O[C@H](CO)C=C2F)c(=O)n1	PBMC	RT-M184V	3TC-resistant (RT M184V)	1.8 µM
NC(=O)c1cccc(CN2C(=O)N(Cc3cccc(C(N)=O)c3)[C@@H](Cc3ccccc3)[C@@H](O)[C@@H]2CCc2ccccc2)c1	MT-2		RF	>5 µM
Cc1cn([C@@H]2O[C@H](CO)[C@@H](N=[N+]=[N-])[C@H]2O)c(=O)[nH]c1=O	PBMC			>100 µM
Nc1ccn([C@H]2S[C@@H](CO)C=C2F)c(=O)n1	PBMC		xxBRU	1.4 µM

A second listing of 2 rows from above:

| smiles | cells | mutations | strain | result |
|---|---|---|---|---|
| Nc1ccn([C@@H]2O[C@H](CO)C=C2F)c(=O)n1 | PBMC | RT-M184V | 3TC-resistant (RT M184V) | 1.8 µM |
| Nc1cccc(CN2C(=O)N(Cc3ccc4[nH]nc(-c5cccs5)c4c3)[C@H](Cc3ccccc3)[C@H](O)[C@@H](O)[C@H]2Cc2ccccc2)c1 | MT-2 | PR-M46I L63P A71V V82F I84V | Ritonavir-resistant (PR M46I L63P A71V V82F I84V) | >5 µM |